PMC10075959 (Science Advances, 2023)
No end group written: not given here.

Test system: LRS peptide self-association (coiled-coil oligomerization)
Assay type: binding

| Molecule | total free energy of trimerization ΔGtrimer |
| --- | --- |
| CC(C)C[C@H](NC(=O)[C@H](C)NC(=O)[C@H](CC(C)C)NC(=O)[C@@H](NC(=O)[C@@H](NC(=O)[C@H](C)NC(=O)[C@H](C)NC(=O)[C@@H](NC(=O)[C@H](CC(C)C)NC(=O)[C@H](CC(=O)O)NC(=O)[C@H](CO)NC(=O)[C@H](CO)NC(=O)[C@H](CO)NC(=O)[C@H](CCC(N)=O)NC(=O)[C@H](CC(N)=O)NC(=O)[C@H](CO)NC(=O)[C@H](CC(=O)O)NC(=O)[C@H](CO)NC(=O)[C@H](CCCNC(=N)N)NC(=O)[C@@H](N)[C@@H](C)O)C(C)C)C(C)C)[C@@H](C)O)C(=O)N[C@@H](CCCCN)C(=O)N[C@@H](CC(N)=O)C(=O)N[C@@H](CC(C)C)C(=O)NCC(=O)N[C@@H](Cc1ccccc1)C(=O)N[C@@H](CC(=O)O)C(=O)N[C@@H](CC(N)=O)C(=O)N[C@@H](CCC(N)=O)C(=O)N[C@@H](CO)C(=O)N[C@@H](CCCCN)C(=O)N[C@@H](CO)C(=O)N1CCC[C@H]1C(=O)N[C@@H](CO)C(=O)N[C@@H](CO)C(=O)N[C@@H](CO)C(=O)NCC(=O)N[C@H](C(=O)O)[C@@H](C)O [NL63] | -10.5 kcal/mol |
| MASGGGETALALLLLDRLNQLESKVSGKGQQQ [SARS-CoV-1] | -8.863 kcal/mol |
| NERLPKSNSKQSNQDDIMAAVAAALEKLGFERPNDASQPQKKQNKGTPKPSR [229E-related bat] | -9.7 kcal/mol |
| RQPASTVKPDMAEEIAALVLAKLGKDAGQPKQV [MHV] | -8.4 kcal/mol |
